Results published in patent US20240131007A1, “METHODS AND COMPOSITIONS FOR PICORNAVIRUS ANTI-VIRAL AGENTS” (University of Connecticut, priority 2022, published 2024).

Assays:
EV-68 = assay: NIAID Antiviral Program for Pandemics primary assay (CPE/Tox), EV-68; details: CC50/EC50
EV-71 = assay: NIAID Antiviral Program for Pandemics primary assay (CPE/Tox), EV-71; details: CC50/EC50

Cc1ccc2[nH]c(-c3ccc(NC(=O)c4cccs4)cc3)nc2c1 [Compound 36, N-[4-(5-methyl-1H-benzimidazol-2-yl)phenyl]-2-thiophenecarboxamide]
SI50 (EV-68; Neutral Red (CPE/Tox)): 23
SI50 (EV-68; Visual (CPE/Tox)): 46
SI50 (EV-71; Neutral Red (CPE/Tox)): 8.9
SI50 (EV-71; Visual (CPE/Tox)): 0
